The record followed here is PMC3618430 (PLoS ONE, 2013).

Assay [1] concerns the target T1, bioHA331, N-terminal biotinylated derivative of HA331 (Influenza A virus H5N1, strain not …, biotin on the N-terminus).
T1 chain: TGLRNSPQRERRRRKKR
As to the kind of experiment: SPR. A general note: SPR reads the build-up and loss of mass on a sensor chip optically.

The target in assay [2] is T2, recombinant A/Vietnam/1194/2004 H5N1 HA (Influenza A virus A/Vietnam/1194/2004 …, UniProt A5A5M5, strain). As to the kind of experiment: SPR.
Assay [3] addresses T3, HA331, peptide for the H5N1 hemagglutinin cleavage site (Influenza A virus H5N1, strain not …).
T3 chain: CTGLRNSPQRERRRRKKR
As to the kind of experiment: SPR; XPR36 (Bio-Rad), 25°C; peptide immobilised, purified Fab as analyte.

In a further assay the target is T4, Pep11-2 (Influenza A virus H5N1, strain not …, PEG2 between the N-terminal C and T, as printed C(PEG2)T).
T4 chain: TGLRNSPQRERRRKKR
The assay is described as above.

The target of assay [4] is T2, recombinant A/Vietnam/1194/2004 H5N1 HA. As to the kind of experiment: ELISA.

B1: A3 soluble Fab fragment (Fab, V domains shown)
VH: QVTLKESGPGILKPSQTLSLTCSFSGFSLSTSGMGVGWIRQSSGKGLEWLANIWWDDDKYYNPSLKSQLTISKDTSRNQVFLKITSVDTADTATYYCARRGEYDAMDYWGQGTSVTVSS
VL: DIVLTQSPASLAVSPGQRATIFCKASQSVVYDGDSYMNWYQQKPGQPPKLLIYAASNLESGIPARFSGSGSGTDFTLNIHPVEEEDAATYYCQQSSEDPWTFGGGTKLEIK
Regarding B1, the equilibrium dissociation constant (Kd) (usually a measure of binding affinity in units of concentration) in assay [1] is 7.39 nM; in assay [2], 76.1 nM; in assay [3], 0.8 nM; in the assay with Pep11-2, 2.31 nM.

B2: A4 Fab displayed on phage (Fab, V domains shown)
VH: QVTLKESGPGILKPSQTLSLTCSFSGFSLSTSGMGVGWIRQPSGKGLEWLANIWWDDDKYYNPSLKSQLTISKDTSRNQVFLKITSVDTADTATYYCARRGKYDSMDYWGQGTSVTVSS
VL: DIVLTQSPASLAMSLGQRATISCKASQSVVYDGDSYMNWYQQKPGQPPKLLIYAASNLESGIPARFSGSGSGTDFTLNIHPVEEEDAATYYCQQSSEDPWTFGGGTKLEIK
notes: also called clone A4; Fab-phage A4; source: E. coli TG-1 with helper phage KM13, phage PEG-precipitated
On to B2, for which, in assay [4], the binding result is reported as “binds”.

B3: D8 Fab displayed on phage (Fab, V domains shown)
VH: QVTLKESGPGILKPSQTLSLTCSFSGFSLSTPGMGVGWIRQPSGKGLEWLANIWWDDDKYYNPSLKSQLTISKDTSRNQVFLKITSVDTTDTATYYCARRGNYDAMDYWGQGTSVTVSS
VL: DIVLTQSPASLAMSLGQRATISCKASQSVVYDGDSYMNWYQQKPGQPPKLLIYAASNLESGIPARFSGSGSGTDFTLNIHPVEEEDAATYYCQQSSEDPWTFGGGTKLEIK
notes: also called clone D8; Fab-phage D8; source: E. coli TG-1 with helper phage KM13, phage PEG-precipitated
In the case of B3, the binding result in assay [4] was “binds”.

B4: D4 Fab displayed on phage (Fab, V domains shown)
VH: QVTLKESGPGILKPSQTLSLTCSFSGFSLNTSGMGVGWIRQPSGKGLEWLANIWWDDDKYYNPSLKSHLTISKDTSGNQVFLKITSVDTADSATYYCARRGDYDSLDYWGQGTSVTVSS
VL: DIVLTQSPGSLSVSLGQRATISCKASQSVDYDGDSYMNWYQQKPGQPPKLLIYAASNLESGIPARFSGSGSGTDFTLNIHPVEEEDAATYYCQQSSEDPWTFGGGTKLEIK
notes: also called clone D4; Fab-phage D4; source: E. coli TG-1 with helper phage KM13, phage PEG-precipitated
With B4, in assay [4], the binding result was “binds”.

B5: A4 soluble Fab fragment (Fab, V domains shown)
VH: QVTLKESGPGILKPSQTLSLTCSFSGFSLSTSGMGVGWIRQPSGKGLEWLANIWWDDDKYYNPSLKSQLTISKDTSRNQVFLKITSVDTADTATYYCARRGKYDSMDYWGQGTSVTVSS
VL: DIVLTQSPASLAMSLGQRATISCKASQSVVYDGDSYMNWYQQKPGQPPKLLIYAASNLESGIPARFSGSGSGTDFTLNIHPVEEEDAATYYCQQSSEDPWTFGGGTKLEIK
As for B5, the dissociation constant Kd in assay [1] was 24.3 nM; in assay [2], 68.9 nM; in assay [3], 2.59 nM; with Pep11-2, 5.03 nM.

B6: D4 soluble Fab fragment (Fab, V domains shown)
VH: QVTLKESGPGILKPSQTLSLTCSFSGFSLNTSGMGVGWIRQPSGKGLEWLANIWWDDDKYYNPSLKSHLTISKDTSGNQVFLKITSVDTADSATYYCARRGDYDSLDYWGQGTSVTVSS
VL: DIVLTQSPGSLSVSLGQRATISCKASQSVDYDGDSYMNWYQQKPGQPPKLLIYAASNLESGIPARFSGSGSGTDFTLNIHPVEEEDAATYYCQQSSEDPWTFGGGTKLEIK
In the case of B6, the Kd in assay [1] amounted to 7.54 nM; in assay [2] it was 35.9 nM; in assay [3], 0.47 nM; with Pep11-2, 1.62 nM.

B7: A3 Fab displayed on phage (Fab, V domains shown)
VH: QVTLKESGPGILKPSQTLSLTCSFSGFSLSTSGMGVGWIRQSSGKGLEWLANIWWDDDKYYNPSLKSQLTISKDTSRNQVFLKITSVDTADTATYYCARRGEYDAMDYWGQGTSVTVSS
VL: DIVLTQSPASLAVSPGQRATIFCKASQSVVYDGDSYMNWYQQKPGQPPKLLIYAASNLESGIPARFSGSGSGTDFTLNIHPVEEEDAATYYCQQSSEDPWTFGGGTKLEIK
notes: also called clone A3; Fab-phage A3; source: E. coli TG-1 with helper phage KM13, phage PEG-precipitated
Turning to B7, the binding result in assay [4] was “binds”.

B8: D8 soluble Fab fragment (Fab, V domains shown)
VH: QVTLKESGPGILKPSQTLSLTCSFSGFSLSTPGMGVGWIRQPSGKGLEWLANIWWDDDKYYNPSLKSQLTISKDTSRNQVFLKITSVDTTDTATYYCARRGNYDAMDYWGQGTSVTVSS
VL: DIVLTQSPASLAMSLGQRATISCKASQSVVYDGDSYMNWYQQKPGQPPKLLIYAASNLESGIPARFSGSGSGTDFTLNIHPVEEEDAATYYCQQSSEDPWTFGGGTKLEIK
Consider B8, for which the Kd was determined as 35 nM in assay [1], 49.3 nM in assay [2], 2.54 nM in assay [3] and 5.74 nM in the assay with Pep11-2.
